Anti-infective test results gathered from many reports (values: NIAID ChemDB through PubChem).

All rows: growth or infection tests; species: Herpes simplex virus 1

Inhibition is in % at the dose shown (toxicity tests: loss of growth or viability).

structure,strain,cell line,read by,measure,tested at,result
Cc1cn([C@@H]2O[C@H](CO)[C@@H](O)[C@@H]2O)c(=O)[nH]c1=O,WT-20,-,-,MIC,-,100 µg/mL
Cn1cc(C(=O)NCc2ccc(Cl)cc2)c(=O)c2cc(CN3CCOCC3)ccc21,E-377,HFF,plaque count,EC50,-,3.5 µM
O=c1[nH]c(=O)n([C@H]2C[C@H](O)[C@@H](CO)O2)cc1/C=C/Br,B2006 (TK-),PRK,virus yield,EC99,-,>100 µg/mL
N=c1ncn(Cc2ccco2)c2nc[nH]c12,-,BSC-1,plaque count,inhibition,6 µg/mL,0%
CCn1nc(CC(=O)NN=C(C)C)nc1C,TK (KOS ACV),-,-,MIC,-,>400 µg/mL
C[C@@H](c1ccccc1)N(CC(=O)Nc1ccc(-c2csc(N)n2)cc1)C(=O)c1ccncc1,DLSPTK,BHK-21/C13,plaque count,EC50,-,0.12 µM
Nc1ccn([C@@H]2O[C@H](CO)[C@@H](O)[C@@H]2O)c(=O)n1,KET,-,-,MIC,-,1.1–2.2 µg/mL
Cc1c(NC(=O)OC(C)(C)C)ccc2nc(N3CCCC3(OCc3ccccc3)C(=O)N(C)CCc3ccncc3)oc(=O)c12,-,VERO,plaque count,EC90,-,6.5 µM
CC(C)C[C@H](NC(=O)[C@@H]1O[C@H]1C(=O)O)C(=O)NCCCCN=C(N)N,Fukuda,CV-1,plaque count,inhibition,20 µM,0%
O=C(NCc1ccc(Cl)cc1)c1cn2c3c(cc(CN4CCOCC4)cc3c1=O)OC(c1cccnc1)C2,L6191321 ACV resistant,HFF,plaque count,EC50,-,7.1 µM
CCN(C(=O)N(C)CCc1ccccn1)c1nc2ccc(NC(=O)CCCNC(=O)c3ccccn3)c(C)c2c(=O)o1,-,VERO,plaque count,EC90,-,>12.5 µM
Nc1ncnc2nc(-c3cscn3)[nH]c12,-,VERO,plaque count,inhibition,1 µg/mL,0%
O=c1[nH]c(=O)n([C@H]2C[C@H](O)[C@@H](CO)O2)cc1I,B2006 (TK-),PRK,virus yield,EC99,-,>100 µg/mL
Cc1c(NC(=O)OC(C)(C)C)ccc2nc(NC3(C(=O)N(C)CCc4ccccn4)CC3)oc(=O)c12,-,VERO,plaque count,EC90,-,>12.5 µM
NNC(=O)Cc1nc2n(n1)CCCCC2,TK (KOS ACV),-,-,MIC,-,>400 µg/mL
O=C(O)CP(=O)(O)O,HL-34,MEF,plaque count,EC50,-,6.1 µg/mL
CC(=O)OC(C(=O)Nc1ccc2nc(NC(C)(C)C(=O)N(C)CCc3ccccn3)oc(=O)c2c1C)c1ccccc1,-,VERO,plaque count,EC90,-,>12.5 µM
Nc1nc2c(ncn2COC(CO)CO)c(=O)[nH]1,5711 (DRUG-resistant),VERO H,plaque count,EC50,-,1.82 µM
Cc1ccc(Cn2cnc(=N)c3[nH]cnc32)cc1,-,BSC-1,plaque count,inhibition,6 µg/mL,0%
CCSC1NN=C(Cc2nc(C)n(C)n2)N1c1ccccc1,TK (KOS ACV),-,-,MIC,-,80 µg/mL
O=c1[nH]c(=O)n([C@H]2C[C@H](O)[C@@H](CO)O2)cc1I,WT-20,-,-,MIC,-,32 µg/mL
C/C=C/c1cn([C@H]2C[C@H](O)[C@@H](CO)O2)c(=O)[nH]c1=O,C42,VERO,plaque count,inhibition,1 µM,53%
Cc1c(NC(=O)OC(C)(C)C)ccc2nc(N3CCC[C@H]3C(=O)NCc3ccncc3)oc(=O)c12,-,VERO,plaque count,EC90,-,>12.5 µM
Nc1nc2c(ncn2COCCO)c(=O)[nH]1,F,HL,virus yield,inhibition,1 µg/mL,67%
CCCCCCCC/C=C\CCCCCCCOCCOP(=O)(O)CO[C@H](CO)Cn1cnc2c(N)ncnc21,-,MRC-5,hybridisation,EC90,-,0.0009 µM
Nc1nc2c(ncn2COCCO)c(=O)[nH]1,SC16,MRC-5,virus yield,EC99,-,1.1 µg/mL
Nc1nc2c(ncn2CCCC(CO)CO)c(=O)[nH]1,C42,SIRC,plaque count,EC50,-,1.3 µM
CCc1nc(CC(=O)NN=C(C)C)nn1CC,KOS,-,-,MIC,-,>400 µg/mL
CC(C)[C@H](NC(=O)[C@H](CCCN=C(N)N)NC(=O)N[C@@H](Cc1ccccc1)C(=O)O)C(=O)N[C@H](C=O)CCCN=C(N)N,Fukuda,CV-1,plaque count,inhibition,20 µM,38%
Nc1nc2c(ncn2COC(CO)CO)c(=O)[nH]1,KOS mutant PFA-R1,WI-38,plaque count,inhibition,1 µM,90%
Cc1c(NC(=O)OC(C)(C)C)ccc2nc(N3CCC[C@H]3C(=O)N(C)CCc3ccccn3)oc(=O)c12,-,VERO,plaque count,EC90,-,>12.5 µM
COCc1cn([C@H]2C[C@H](O)[C@@H](CO)O2)c(=O)[nH]c1=O,ACG-resistant,RK-13,plaque count,EC50,-,>1138 µM
O=C(NCc1ccc(Cl)cc1)c1c[nH]c2ccc(CCCO)cc2c1=O,F,-,plaque count,EC50,-,12 µM
Nc1nc2c(ncn2COCCO)c(=O)[nH]1,T18327-1 acyclovir-susceptible,HFF,cytopathic effect,EC50,-,0.5 µg/mL
COc1ccc(-n2c(Cc3nc4n(n3)CCCC4)n[nH]c2=S)cc1,KOS,-,-,MIC,-,80 µg/mL
Cc1cccc(Cn2cnc(=N)c3[nH]cnc32)c1,-,BSC-1,plaque count,inhibition,50 µg/mL,9%
CSc1ncnc2c1ncn2[C@@H]1OC2COP(=O)(O)OC2[C@H]1O,HF,-,-,MIC,-,3.2 µg/mL
CCn1nc(Cc2n[nH]c(=S)o2)nc1C,TK (KOS ACV),-,-,MIC,-,>400 µg/mL
CCCc1cn([C@@H]2O[C@H](CO)[C@@H](O)[C@@H]2O)c(=O)[nH]c1=O,VR-3,-,-,MIC,-,32 µg/mL
Cc1nc(CC(=O)NN)nn1C,KOS,-,-,MIC,-,>400 µg/mL
O=P1(O)OCC2O[C@@H](n3cnc4c(NO)ncnc43)[C@H](O)C2O1,-,-,-,MIC,-,1 µg/mL
Nc1ncnc2c1ncn2[C@@H]1C[C@H](CO)[C@@H](O)[C@@H]1O,VR-3,-,-,MIC,-,10 µg/mL

A second listing of 3 rows from above:

structure	strain	cell line	read by	measure	tested at	result
CC(C)C[C@H](NC(=O)[C@@H]1O[C@H]1C(=O)O)C(=O)NCCCCN=C(N)N	Fukuda	CV-1	plaque count	inhibition	20 µM	0%
Cc1nc(CC(=O)NN)nn1C	KOS	-	-	MIC	-	>400 µg/mL
Cc1ccc(Cn2cnc(=N)c3[nH]cnc32)cc1	-	BSC-1	plaque count	inhibition	6 µg/mL	0%

An empty or dashed field is not shown. ECn: concentration that inhibits the pathogen or its effect by n%. Two numbers with a dash give a range or band. Conditions beyond the fields shown may differ between rows.